Our source for the Score values is publication PMC7954794, “Protein context shapes the specificity of SH3 domain-mediated interactions in vivo” (Nature Communications, 2021).

Some results come without the dose or concentration used.

The subject of data set [1] is BEM1-1. Briefly: DHFR-PCA on solid medium, bait BEM1-1 (Fig. 1B). The arrangement: key: 0: SH3-independent; 1: SH3-dependent PPIs; 2: SH3-inhibited PPIs. The settings on record: bait BEM1-1, label = prey. Type of data set: cell-based, Saccharomyces cerevisiae. From the text: (§1) Supplement 41467_2021_21873_MOESM8_ESM.xlsx, sheet "Fig1B" | column: medsize; medrep; Ratio; Score

Data set [2] relates to BEM1-2. Briefly: DHFR-PCA on solid medium, bait BEM1-2 (Fig. 1B). The data set is classed as cell-based, Saccharomyces cerevisiae. The arrangement: key: 0: SH3-independent; 1: SH3-dependent PPIs; 2: SH3-inhibited PPIs. The settings on record: bait BEM1-2, label = prey.
Source text: as §1

B1: YGR281W (protein, UniProt P53049 1-1477, looked up)
Oligomycin resistance …: MTITVGDAVSETELENKSQNVVLSPKASASSDISTDVDKDTSSSWDDKSLLPTGEYIVDRNKPQTYLNSDDIEKVTESDIFPQKRLFSFLHSKKIPEVPQTDDERKIYPLFHTNIISNMFFWWVLPILRVGYKRTIQPNDLFKMDPRMSIETLYDDFEKNMIYYFEKTRKKYRKRHPEATEEEVMENAKLPKHTVLRALLFTFKKQYFMSIVFAILANCTSGFNPMITKRLIEFVEEKAIFHSMHVNKGIGYAIGACLMMFVNGLTFNHFFHTSQLTGVQAKSILTKAAMKKMFNASNYARHCFPNGKVTSFVTTDLARIEFALSFQPFLAGFPAILAICIVLLIVNLGPIALVGIGIFFGGFFISLFAFKLILGFRIAANIFTDARVTMMREVLNNIKMIKYYTWEDAYEKNIQDIRTKEISKVRKMQLSRNFLIAMAMSLPSIASLVTFLAMYKVNKGGRQPGNIFASLSLFQVLSLQMFFLPIAIGTGIDMIIGLGRLQSLLEAPEDDPNQMIEMKPSPGFDPKLALKMTHCSFEWEDYELNDAIEEAKGEAKDEGKKNKKKRKDTWGKPSASTNKAKRLDNMLKDRDGPEDLEKTSFRGFKDLNFDIKKGEFIMITGPIGTGKSSLLNAMAGSMRKTDGKVEVNGDLLMCGYPWIQNASVRDNIIFGSPFNKEKYDEVVRVCSLKADLDILPAGDMTEIGERGITLSGGQKARINLARSVYKKKDIYLFDDVLSAVDSRVGKHIMDECLTGMLANKTRILATHQLSLIERASRVIVLGTDGQVDIGTVDELKARNQTLINLLQFSSQNSEKEDEEQEAVVAGELGQLKYESEVKELTELKKKATEMSQTANSGKIVADGHTSSKEERAVNSISLKIYREYIKAAVGKWGFIALPLYAILVVGTTFCSLFSSVWLSYWTENKFKNRPPSFYMGLYSFFVFAAFIFMNGQFTILCAMGIMASKWLNLRAVKRILHTPMSYIDTTPLGRILNRFTKDTDSLDNELTESLRLMTSQFANIVGVCVMCIVYLPWFAIAIPFLLVIFVLIADHYQSSGREIKRLEAVQRSFVYNNLNEVLGGMDTIKAYRSQERFLAKSDFLINKMNEAGYLVVVLQRWVGIFLDMVAIAFALIITLLCVTRAFPISAASVGVLLTYVLQLPGLLNTILRAMTQTENDMNSAERLVTYATELPLEASYRKPEMTPPESWPSMGEIIFENVDFAYRPGLPIVLKNLNLNIKSGEKIGICGRTGAGKSTIMSALYRLNELTAGKILIDNVDISQLGLFDLRRKLAIIPQDPVLFRGTIRKNLDPFNERTDDELWDALVRGGAIAKDDLPEVKLQKPDENGTHGKMHKFHLDQAVEEEGSNFSLGERQLLALTRALVRQSKILILDEATSSVDYETDGKIQTRIVEEFGDCTILCIAHRLKTIVNYDRILVLEKGEVAEFDTPWTLFSQEDSIFRSMCSRSGIVENDFENRS
For B1, the values for the Score in data set [1] and in data set [2] were 0 and 1, respectively.

B2: YER114C (protein)
chain: PMYIAINEYFKRMEDELDMKPGDKIKVITDDEEYKDGWYFGRNLRTNEEGLYPVVFTQKIT
B2: the Score is given as 0 in data set [1] and 1 in data set [2].

B3: YKL051W (protein, UniProt P35735 1-353, looked up)
Protein SFK1: MIQFKSPGNWLFIVPWIAFIPWYGMLIAMLICWASQGHPIYWFMHSEQFPVYISDIGATNLRPLFISCAGWQGLGYVITVALEFFQRSGYLPFQLKKKDPSISDSTSYAEKLHSGKYLMPPYYTKDERNLIFAAFVLGSIGELALLFSSIFSTALYHRVHIAMVSVFVVFMFLSTCCLIAEYFLMGRHYASVHPLASPHFNPQSSEKSFNQDYNTVDELPWYKWKGHVWNKFTISATLKVIWLTLAVVWAICFGAINDRSKSACFEWLLAFWFGIIFMILSADFYLGGRYRQSRYFNHVESFSGYYKYDKALGLYHSEDVLPSDDNAGVIATETASSNIYNNSSSNESIQVVV
Turning to B3, the Score in data set [1] and in data set [2] was 1 in each case.

B4: YBL085W (protein, UniProt P38041 1-980, looked up)
BEM1-interacting protein 1: MSLEGNTLGKGAKSFPLYIAVNQYSKRMEDELNMKPGDKIKVITDDGEYNDGWYYGRNLRTKEEGLYPAVFTKRIAIEKPENLHKSPTQESGNSGVKYGNLNDSASNIGKVSSHQQENRYTSLKSTMSDIDKALEELRSGSVEQEVSKSPTRVPEVSTPQLQDEQTLIQEKTRNEENTTHDSLFSSTADLNLSSESLKNISKSNISTKSLEPSSESVRQLDLKMAKSWSPEEVTDYFSLVGFDQSTCNKFKEHQVSGKILLELELEHLKELEINSFGIRFQIFKEIRNIKSAIDSSSNKLDADYSTFAFENQAAQLMPAATVNRDEIQQQISSKCNKLSSESSDRKSSSVTTELQRPSSVVVNPNFKLHDPAEQILDMTEVPNLFADKDIFESPGRAPKPPSYPSPVQPPQSPSFNNRYTNNNARFPPQTTYPPKNKNPTVYSNGLIPNSSTSSDNSTGKFKFPAMNGHDSNSRKTTLTSATIPSINTVNTDESLPAISNISSNATSHHPNRNSVVYNNHKRTESGSSFVDLFNRISMLSPVKSSFDEEETKQPSKASRAVFDSARRKSSYGHSRDASLSEMKKHRRNSSILSFFSSKSQSNPTSPTKQTFTIDPAKMTSHSRSQSNSYSHARSQSYSHSRKHSLVTSPLKTSLSPINSKSNIALAHSETPTSSNNKEAVSQPSEGKHKHKHKHKSKHKHKNSSSKDGSSEEKSKKKLFSSTKESFVGSKEFKRSPSELTQKSTKSILPRSNAKKQQTSAFTEGIRSITAKESMQTADCSGWMSKKGTGAMGTWKQRFFTLHGTRLSYFTNTNDEKERGLIDITAHRVLPASDDDRLISLYAASLGKGKYCFKLVPPQPGSKKGLTFTEPRVHYFAVENKSEMKAWLSAIIKATIDIDTSVPVISSYATPTIPLSKAQTLLEEARLQTQLRDAEEEEGRDQFGWDDTQNKRNSNYPIEQDQFETSDYLESSAFEYPGGRL
On to B4, for which the Score in data set [1] and in data set [2] was 1 each time.

B5: YDR379W (protein, UniProt Q06407 1-1009, looked up)
Rho-type GTPase-activating …: MSADPINDQSSLCVRCNKSIASSQVYELESKKWHDQCFTCYKCDKKLNADSDFLVLDIGTLICYDCSDKCTNCGDKIDDTAIILPSSNEAYCSNCFRCCRCSNRIKNLKYAKTKRGLCCMDCHEKLLRKKQLLLENQTKNSSKEDFPIKLPERSVKRPLSPTRINGKSDVSTNNTAISKNLVSSNEDQQLTPQVLVSQERDESSLNDNNDNDNSKDREETSSHARTVSIDDILNSTLEHDSNSIEEQSLVDNEDYINKMGEDVTYRLLKPQRANRDSIVVKDPRIPNSNSNANRFFSIYDKEETDKDDTDNKENEIIVNTPRNSTDKITSPLNSPMAVQMNEEVEPPHGLALTLSEATKENNKSSQGIQTSTSKSMNHVSPITRTDTVEMKTSTSSSTLRLSDNGSFSRPQTADNLLPHKKVAPSPNKKLSRSFSLKSKNFVHNLKSKTSEMLDPKHPHHSTSIQESDTHSGWGVSSTHTNIRKSKAKKNPVSRGQSDSTIYNTLPQHGNFTVPEFNHKKAQSSLGSISKKQNSNDTATNRRINGSFTSSSSGHHIAMFRTPPLESGPLFKRPSLSSESAHHRSSSLQTSRSTNALLEDDSTKVDATDESATSLEKDFYFTELTLRKLKLDVRELEGTKKKLLQDVENLRLAKERLLNDVDNLTREKDKQSASSRESLEQKENIATSITVKSPSSNSDRKGSISNASPKPRFWKIFSSAKDHQVGDLESQQRSPNSSSGGTTNIAQKEISSPKLIRVHDELPSPGKVPLSPSPKRLDYTPDGSHLYGSSLQARCAYEKSTVPIIIRCCIDRIEKDDIGLNMEGLYRKSGSQTLVEEIENEFAQNNSLHSDTLSPKLNALLNQDIHAVASVLKRYLRKLPDPVLSFSIYDALIDLVRNNQLIERLPLNNDKFLDSPQKVTIYEMVLKSLLEIFKILPVEHQEVLKVLAAHIGKVRRCSERNLMNLHNLSLVFAPSLIHDFDGEKDIVDMKERNYIVEFILGNYRDIFKQA
B5: the Score in data set [1] is 0; in data set [2] it was 1.

B6: YDR166C (protein, UniProt P89102 1-971, looked up)
Exocyst complex component SEC5: MDRFQIGDEQLLRFYQLKTINPTHSWAQDSSKLNNEEATSNELGVETSFDILKDFKYGNQISIDKESRAYLNDESLSYIRDPLNGQEMSKELQHLPNDSMRLNYLVNSKQFNVKAFLRDMHKQDSFNDLNNSLDRLDSDIQDQSIHLKQLVGKNFTKYVKIKNKLDQIYKEFDEKTNEKNQCDSPKENQINVESLNKKVDEVIRTTTFKLKPLMDNYQKILNYQATKKFIELNKFYFNLPKSLKRCLTNNDFNEFIIEYSKGLTLRRRFNQSSDASQSLVIKRIWTQIENLLVTYKDLIWNSLINSNFNIDQPQETILSLFSKLLNLENFINNNQRESESGNKNTTSSSNENPILRWMSIKMNGFQNELNELSGHMISKIIHSQRLILQNNTNQDKSQGCVELSYYLKINQLFQIISDTGKDSEGLKSTVEPNKVNTISGTSYLNLNCQPSSQGLTDSPTIIEMWLLILKYINDLWKICDQFIEFWEHIEKFLDGTYQNSIINEKRKENILIGDSNIIESYQKSLILKEEQINEVRLKGEEFITSVSQNLISFFTSSQSSLPSSLKDSTGDITRSNKDSGSPLDYGFIPPNCNGLSCLRYLPKIVEPILKFSTELAQLNITTNGITICRNTLSTIINRCVGAISSTKLRDISNFYQLENWQVYETVTFSSKSQDSSKNLTFEYGVTQFPEIVTSFQEVSIKTTRDLLFAYEKLPIINGISVVSYPSKQLLTGIEIQQIISMEAVLEAILKNAAKDKDNPRNSHTILTLTNLQYFRECAFPNILQYFDDAFEWNLASKNLELFSLLSKMESSIFGNYLSDLKINLRDTLEEKFHEINWPMYTSNSFRVGDYIIEALMILIVVHSECFRIGPQLIHKILIETQIFIARYLFEAFKPYVGNLSNDGSLQIIVDLEFFQKVMGPLLEKDTEATLRACLQNCFQNDTNRLQKCINEINPIVSANLKRTAIQFAAFS
B6: the Score was determined as 0 in data set [1] and 1 in data set [2].

B7: YBR102C (protein, UniProt P38261 1-753, looked up)
Exocyst complex component …: MVEFSLKKARNNWKHVKKSASSPAKQKTPPSPAKPKQKTKKNPYSDLKDPATSYTLPTINARERSRVATSMQRRLSIHNTNYAPPTLDYSMPLPDMPNMIVPNDNVDSSHNNSSFTTENESVSSKGPSNSLNLSTADLSLNDSSYNKVPARSAMRNTVNPSGSNDPFNNSTSLRKMLANPHFNAKDFVHDKLGNASAITIDKFTSNLTDLSIQVQEEVKLNINKSYNEIMTVNNDLNVAMLELKRVRANINDLNEVLDQCTKIAEKRLQLQDQIDQERQGNFNNVESHSNSPALLPPLKAGQNGNLMRRDRSSVLILEKFWDTELDQLFKNVEGAQKFINSTKGRHILMNSANWMELNTTTGKPLQMVQIFILNDLVLIADKSRDKQNDFIVSQCYPLKDVTVTQEEFSTKRLLFKFSNSNSSLYECRDADECSRLLDVIRKAKDDLCDIFHVEEENSKRIRESFRYLQSTQQTPGRENNRSPNKNKRRSMGGSITPGRNVTGAMDQYLLQNLTLSMHSRPRSRDMSSTAQRLKFLDEGVEEIDIELARLRFESAVETLLDIESQLEDLSERISDEELMLLNLISLKIEQRREAISSKLSQSILSSNEIVHLKSGTENMIKLGLPEQALDLFLQNRSNFIQDLILQIGSVDNPTNYLTQLAVIRFQTIKKTVEDFQDIFKELGAKISSILVDWCSDEVDNHFKLIDKQLLNDEMLSPGSIKSSRKQIDGLKAVGLDFVYKLDEFIKKNSDKIR
Consider B7, for which the Score in data set [1] and in data set [2] was 1 each time.
